This is an account of results in PubChem BioAssay AID743269 (The Scripps Research Institute Molecular Screening Center, 2014).

Only a part is listed here, and it is no random draw. Some salts and complexes are drawn in separate pieces, as the source files them; their charges need not balance. The source made the active and inactive calls.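 The calls were made as follows: active = inhibition above the screen-wide mean plus 3 SD (cut at about 13% in these data); inactive = the rest.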

The test system of the experiment is HIV-1 integrase (with human LEDGF/p75). Nature of the experiment: blockers of LEDGF/p75-dependent integrase strand transfer – biochemical, TR-FRET, high throughput, primary screen (AID 743269).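 Also: signal is the Cy5 over europium emission ratio at 671 and 618 nm; 0% = plate median of compound wells.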 Conditions: TR-FRET IN-LEDGF/p75 DNA integration, Eu/Cy5; at 3.7 µM; stronger effect = higher value. For orientation: Time-resolved FRET reads energy transfer from a long-lived donor to a nearby acceptor.
The inhibition is the relative decrease from the control value, in per cent. Turning to `COc1ccccc1OP(C)(=O)Nc1ccc(C)c(C)c1` (centres undefined), the inhibition is inactive: 2.54%.

On to `COc1ccc(OP(C)(=O)Nc2ccccc2Br)cc1` (centres undefined), for which the inhibition was inactive: -1.29%.

As for `O=C1C(O)=C([N+](=O)[O-])C(=O)C(O)=C1[N+](=O)[O-]`, the inhibition is inactive: 7.58%.

`Cc1cc(C)cc(OP(C)(=O)Nc2cccc(C(F)(F)F)c2)c1` (centres undefined): the inhibition was inactive: -4.25%.

As to `CP(=O)(OCCOc1ccccc1)OCCOc1ccccc1`, the inhibition is inactive: 5.88%.

`CCCCCCCCCCCCCCCC1C[N+](C)(C)CCOP(C)(=O)O1` (centres undefined): the inhibition is inactive: -2%.

`CP(=O)(Nc1ccc(Cl)cc1Cl)Oc1ccccc1` (centres undefined): the inhibition is inactive: -5.01%.

As to `COc1ccc(OP(C)(=O)Nc2ccccn2)cc1` (centres undefined), the inhibition was inactive: 4.84%.

For `CN(C)CCOC(=O)C(O)(c1ccccc1)C1CCCC1` (centres undefined), the inhibition is inactive: 1.99%.

On to `COc1ccccc1OP(C)(=O)Nc1ccc(Br)cc1` (centres undefined), for which the inhibition is inactive: -1%.

Take `CP(=O)(Nc1ccccn1)Oc1ccccc1` (centres undefined): the inhibition was inactive: 0.17%.

Turning to `COc1ccccc1OP(C)(=O)Nc1ccc(C)cc1C` (centres undefined), the inhibition is inactive: -1.29%.

For the molecule `CCc1ccc(OP(C)(=O)O)cc1`, the inhibition is inactive: -4.34%.

As for `O=[N+]([O-])c1cc([N+](=O)[O-])c(Nc2ccccn2)c([N+](=O)[O-])c1`, the inhibition was inactive: 2.83%.

As for `Cc1c(NP(C)(=O)Oc2ccc(C(C)C)cc2)c(=O)n(-c2ccccc2)n1C` (centres undefined), the inhibition was inactive: -3.25%.

Turning to `COc1ccccc1OP(C)(=O)Nc1c(C)n(C)n(-c2ccccc2)c1=O` (centres undefined), the inhibition was inactive: -0.76%.

On to `O=C(OCCCN1CCCC1)C(O)(c1ccccc1)C1CCCCC1` (centres undefined), for which the inhibition was inactive: -1.98%.

Take `CP(=O)(Oc1ccccc1)N1CCOC1=O` (centres undefined): the inhibition is inactive: 0.16%.

As to `CCc1ccc(OP(C)(=O)Nc2cccnc2)cc1` (centres undefined), the inhibition is inactive: -0.89%.

In the case of `CCN(CC)CC(O)COC(=O)C(O)(c1ccccc1)C1CCCCC1` (centres undefined), the inhibition was inactive: 0.75%.

Consider `COc1ccc(OP(C)(=O)Nc2ccc(Br)cc2)cc1` (centres undefined), for which the inhibition was inactive: 0.36%.

`CN(C)C(=O)c1c([N+](=O)[O-])cc([N+](=O)[O-])cc1[N+](=O)[O-]`: the inhibition was inactive: -1.08%.

For the molecule `CC(C)(C)c1ccc(OP(C)(=O)O)cc1`, the inhibition is inactive: 7.62%.

As for `COc1ccccc1OP(C)(=O)Nc1ccccc1Br` (centres undefined), the inhibition is inactive: 5.22%.

In the case of `CP(=O)(Nc1ccc(Cl)cc1)Oc1ccc(F)cc1` (centres undefined), the inhibition is inactive: -0.2%.

Consider `CCOC(=O)c1ccc(NP(C)(=O)Oc2ccc(Cl)cc2)cc1` (centres undefined), for which the inhibition is active: 13.8%.

As for `CP(=O)(OC12CC3CC(CC(C3)C1)C2)OC12CC3CC(CC(C3)C1)C2`, the inhibition was inactive: 10.3%.

As for `Nc1ccc2c(ccc3cccnc32)n1.O=[N+]([O-])c1cc([N+](=O)[O-])c(O)c([N+](=O)[O-])c1`, the inhibition was inactive: -0.82%.

For `CN(C)CCOC(=O)C(O)(c1ccccc1)C1CCCCC1` (centres undefined), the inhibition was inactive: 0.06%.

Turning to `COc1ccc(NP(C)(=O)Oc2ccccc2OC)cc1` (centres undefined), the inhibition was inactive: -0.31%.

Turning to `COc1ccc(OP(C)(=O)Nc2cccc(Br)c2)cc1` (centres undefined), the inhibition is inactive: 0.55%.

As to `Cc1c(C(c2ccc3c(c2)OCO3)c2c(C)n(C)n(-c3ccccc3)c2=O)c(=O)n(-c2ccccc2)n1C.O=[N+]([O-])c1cc([N+](=O)[O-])c(O)c([N+](=O)[O-])c1`, the inhibition is inactive: -1.68%.

As for `O=[N+]([O-])c1ccc(OP2(=O)COCCO2)cc1` (centres undefined), the inhibition is inactive: 2.47%.

For the molecule `Cc1cc(-c2cccc3ccccc23)c(C)cn1.O=[N+]([O-])c1cc([N+](=O)[O-])c(O)c([N+](=O)[O-])c1`, the inhibition is inactive: 3.04%.

In the case of `O=[N+]([O-])c1cc([N+](=O)[O-])c(NCC2CCS(=O)(=O)C2)c([N+](=O)[O-])c1` (centres undefined), the inhibition was inactive: -1.13%.

With `CCOP(C)(=S)SCC(=O)NC(C)(CC)C(=O)O` (centres undefined), the inhibition is inactive: 2.53%.

Regarding `CCOP(=O)(CC)OCC`, the inhibition was inactive: -2.16%.

As to `CP(=O)(Nc1ccc(SC(F)(F)F)cc1)Oc1ccc(F)cc1` (centres undefined), the inhibition was inactive: 7.34%.

`Cc1ccccc1NP(C)(=O)Nc1ccccc1C`: the inhibition was inactive: 0.66%.

On to `O=[N+]([O-])c1cc([N+](=O)[O-])c(C(F)(F)F)c([N+](=O)[O-])c1O`, for which the inhibition is inactive: 4.7%.

Consider `CP(=O)(Nc1ccc2c(c1)OCCO2)Oc1ccccc1` (centres undefined), for which the inhibition is inactive: 3.83%.

`CP(=O)(Nc1ccccc1F)Oc1ccccc1` (centres undefined): the inhibition is inactive: -0.77%.

Turning to `CC(C)c1ccc(OP(C)(=O)Nc2ccc(SC(F)(F)F)cc2)cc1` (centres undefined), the inhibition was inactive: 2.01%.

For the molecule `O=[N+]([O-])c1cc([N+](=O)[O-])c(Nc2ccc(Cl)cc2)c([N+](=O)[O-])c1`, the inhibition was inactive: 0.84%.

Take `COc1ccc2c(c1O)-c1c(O)c(OC)cc3c1[C@H](C2)[N+](C)(C)CC3.O=[N+]([O-])c1cc([N+](=O)[O-])c([O-])c([N+](=O)[O-])c1[O-]`: the inhibition was inactive: 1.05%.

`O=C(OC1CN2CCC1CC2)c1ccc([N+](=O)[O-])cc1` (centres undefined): the inhibition is inactive: 2.92%.

`O=C(OCCN1CCN(CCOCc2ccccc2)CC1)C(O)(c1ccccc1)c1ccccc1`: the inhibition is inactive: 0.37%.

For `CCOC(=O)c1ccc(NP(C)(=O)Oc2ccc(F)cc2)cc1` (centres undefined), the inhibition was inactive: -1.22%.

Consider `COc1ccc(OP(C)(=O)Nc2ccc(SC(F)(F)F)cc2)cc1` (centres undefined), for which the inhibition is inactive: 1.22%.

For the molecule `CCN(CC)CCCNc1ccccc1[N+](=O)[O-].O=[N+]([O-])c1cc([N+](=O)[O-])c(O)c([N+](=O)[O-])c1`, the inhibition is inactive: 0.5%.

On to `CP(=O)(Nc1ccccc1)Oc1ccc(F)cc1` (centres undefined), for which the inhibition is inactive: 0.15%.

`CCCCCOc1ccc(NP(C)(=O)Oc2ccc(Cl)cc2Cl)cc1` (centres undefined): the inhibition was inactive: -3.88%.

`O=[N+]([O-])c1cc([N+](=O)[O-])c(OC2CCCCC2O)c([N+](=O)[O-])c1` (centres undefined): the inhibition was inactive: 0.48%.

`Cc1c([N+](=O)[O-])cc([N+](=O)[O-])c(Br)c1[N+](=O)[O-]`: the inhibition is inactive: 7.84%.

On to `CCN(CC)CCCOC(=O)C(O)(c1ccccc1)C1CCCCC1` (centres undefined), for which the inhibition was inactive: 1.6%.

For the molecule `O=C(O)c1cccc(Nc2c([N+](=O)[O-])cc([N+](=O)[O-])cc2[N+](=O)[O-])c1`, the inhibition was inactive: 8.25%.

Take `CC1=NCCc2c1[nH]c1ccccc21.O=[N+]([O-])c1cc([N+](=O)[O-])c(O)c([N+](=O)[O-])c1`: the inhibition is inactive: -3.52%.

`CCOC(=O)c1ccc(NP(C)(=O)Oc2cc(C)cc(C)c2)cc1` (centres undefined): the inhibition was inactive: -0.57%.

For the molecule `Cc1cc(C)cc(OP(C)(=O)Nc2ccc(C)cc2C)c1` (centres undefined), the inhibition was inactive: 0.67%.

`COc1ccccc1OP(C)(=O)Nc1cccc(Br)c1` (centres undefined): the inhibition was inactive: -1.05%.

With `Cc1ccc(C)c(NP(C)(=O)Oc2ccccc2)c1` (centres undefined), the inhibition was inactive: 4.1%.

For `CP(=O)(Nc1cccc(Br)c1)Oc1ccccc1` (centres undefined), the inhibition is inactive: 0.67%.

Turning to `Cc1cc(C)cc(OP(C)(=O)Nc2ccccn2)c1` (centres undefined), the inhibition is inactive: -5.19%.

For `CN(Cc1cccnc1)C(=O)COc1ccc(Cl)c(Cl)c1.O=[N+]([O-])c1cc([N+](=O)[O-])c(O)c([N+](=O)[O-])c1`, the inhibition is inactive: -3.7%.

On to `O=[N+]([O-])c1cc([N+](=O)[O-])c(-n2nnc3ccccc32)c([N+](=O)[O-])c1`, for which the inhibition is inactive: -3.86%.

On to `Cc1nc2ccc3ccccc3c2s1.O=[N+]([O-])c1cc([N+](=O)[O-])c(O)c([N+](=O)[O-])c1`, for which the inhibition was inactive: 6.3%.

As to `O=[N+]([O-])c1cc([N+](=O)[O-])c(-c2cnn(-c3ccccc3)c2)c([N+](=O)[O-])c1`, the inhibition is inactive: -0.7%.

On to `O=[N+]([O-])c1cc([N+](=O)[O-])c(Nc2nnnn2CCO)c([N+](=O)[O-])c1`, for which the inhibition was inactive: 1.55%.

In the case of `CCOC(=O)C(CC)C1=NC(C)(C)Cc2ccccc21.O=[N+]([O-])c1cc([N+](=O)[O-])c(O)c([N+](=O)[O-])c1` (centres undefined), the inhibition is inactive: -1.88%.

Consider `COc1ccc(-c2ccccn2)cc1.O=[N+]([O-])c1cc([N+](=O)[O-])c(O)c([N+](=O)[O-])c1`, for which the inhibition is inactive: 12.2%.

As to `CP(=O)(Nc1ccc(SC(F)(F)F)cc1)Oc1ccccc1` (centres undefined), the inhibition is inactive: -3.27%.

For `CCCOc1ccc(NP(C)(=O)Oc2ccc(Cl)cc2)cc1` (centres undefined), the inhibition was inactive: -5.59%.

Turning to `CN1CCCCC1COC(=O)C1(O)c2ccccc2CCc2ccccc21` (centres undefined), the inhibition is inactive: -1.52%.

Regarding `COc1ccccc1OP(C)(=O)Nc1c(C)cccc1C` (centres undefined), the inhibition was inactive: -1.66%.

`CP(=O)(Nc1ccccc1Br)Oc1ccccc1` (centres undefined): the inhibition was inactive: -0.29%.

As for `COc1ccccc1OP(C)(=O)Nc1ccccc1` (centres undefined), the inhibition is inactive: -4.01%.

In the case of `CP(=S)(Nn1cnnc1)Oc1ccccc1` (centres undefined), the inhibition is inactive: -0.34%.

Take `CCc1ccc(OP(C)(=O)N2CCN(c3ccc([N+](=O)[O-])cc3)CC2)cc1` (centres undefined): the inhibition is inactive: -4%.

Regarding `CP(=O)(NC(=O)Nc1ccccc1)Oc1ccccc1` (centres undefined), the inhibition is inactive: -0.74%.

As for `Cc1cc(C)cc(OP(C)(=O)Nc2ccc(SC(F)(F)F)cc2)c1` (centres undefined), the inhibition was inactive: -2.48%.

Turning to `CP(=O)(Nc1ccc(SC(F)(F)F)cc1)Oc1ccc(Cl)cc1` (centres undefined), the inhibition was inactive: 1.2%.

With `Cc1cccc(C)c1OP(C)(=O)Nc1ccc(SC(F)(F)F)cc1` (centres undefined), the inhibition is inactive: -1.74%.

For the molecule `CP(=O)(Oc1ccccc1)OC(c1ccccc1)C(F)(F)F` (centres undefined), the inhibition was inactive: 3.34%.

In the case of `CP(=O)(Nc1ccccn1)Oc1ccc(Cl)cc1` (centres undefined), the inhibition is inactive: -4.29%.

Turning to `O=[N+]([O-])c1cc([N+](=O)[O-])c(O)c([N+](=O)[O-])c1.c1ccc(Oc2ccncc2)cc1`, the inhibition is inactive: 0.36%.

With `CCOC(=O)c1ccc(NP(C)(=O)Oc2ccc(OC)cc2)cc1` (centres undefined), the inhibition is inactive: -0.57%.

Take `CCOP(C)(=S)SCC(=O)NC(C)C(=O)O` (centres undefined): the inhibition was inactive: -0.45%.

On to `CCN(CC)CCCOC(=O)C(O)(c1ccccc1)c1ccccc1`, for which the inhibition was inactive: -5.36%.

As for `COc1ccccc1-c1ccccn1.O=[N+]([O-])c1cc([N+](=O)[O-])c(O)c([N+](=O)[O-])c1`, the inhibition was inactive: 2.7%.

Consider `O=[N+]([O-])c1ccc2c(c1)C=Nc1ccccc1O2`, for which the inhibition was inactive: -1.8%.

In the case of `CC(C)(C)c1ccc(OP(C)(=O)Nc2ccc(SC(F)(F)F)cc2)cc1` (centres undefined), the inhibition is inactive: -1.07%.

Turning to `Cc1cccc(C)c1OP(C)(N)=O` (centres undefined), the inhibition is inactive: 0.4%.

In the case of `O=[N+]([O-])c1cc([N+](=O)[O-])c(Nc2cccnc2)c([N+](=O)[O-])c1`, the inhibition was inactive: 4.46%.

For `Cc1cc(C)cc(OP(C)(N)=O)c1` (centres undefined), the inhibition is inactive: 2.43%.

`COc1ccccc1OP(C)(=O)Nc1cc(Cl)ccc1C` (centres undefined): the inhibition was inactive: 0.48%.

`COc1ccc(OP(C)(=O)Nc2cccc(F)c2)cc1` (centres undefined): the inhibition is inactive: -1.5%.

`COc1ccccc1OP(C)(=O)Nc1ccc(C)cc1` (centres undefined): the inhibition is inactive: -2.28%.

Consider `Cc1ccc(NP(C)(=O)Oc2ccccc2)c(C)c1` (centres undefined), for which the inhibition is inactive: 1.18%.

For `CCOC(=O)c1ccc(NP(C)(=O)Oc2ccccc2)cc1` (centres undefined), the inhibition was inactive: 3.48%.
